Results of unrelated studies side by side (data: NIAID ChemDB).

ICn: concentration for n% inhibition. MIC50, MIC90 and the like: level of inhibition, or share of isolates inhibited. Percent inhibition refers to the dose given; in toxicity tests it is the harm to the cells. MIC bound comes from a single tested concentration. Blank or dashed fields: not listed here. ECn is the concentration giving n% inhibition of infection, replication or growth. Conditions beyond the fields shown may differ between rows.

compound | kind | target | tested at | measure | species | read by | strain | cell line | value
O=C1c2cccc(NCCc3ccccc3)c2C(=O)c2cccc(NCCc3ccccc3)c21 | culture | - | - | MIC | Mycobacterium tuberculosis | - | H37Rv | - | >100 µg/mL
CCO/N=C/c1ccc(OCCC2CCN(c3ccc(C)nn3)CC2)cc1 | culture | - | - | EC50 | Rhinovirus | neutral red | 47-CV21 (ICAM-1 receptor group 21) | KB | 0.005 µM
CC1CCC(C(C)C)C2(C1)OC(CCl)CS2 | culture | - | 12.5 µg/mL | inhibition | Mycobacterium tuberculosis | BACTEC | H37Rv | - | -9%
CC(C)c1cc(C(C)C)c(C(=O)Nc2nnc(NCCN(C)C)s2)c(C(C)C)c1 | target | Polymerase | - | IC50 | Human cytomegalovirus | - | - | - | >25 µM
COc1ccc(N2CCN(c3cncc(-c4ccc(C(C)(C)C)cc4)n3)CC2)cc1OC | target | UL97 kinase | 10 µM | inhibition | Cytomegalovirus | - | - | - | >15%
Cl.c1ccc(N2CCNCC2)cc1 | culture | - | - | MIC | Mycobacterium tuberculosis | - | H37Rv | - | >100 µg/mL
CO[C@@]12[C@H](COC(N)=O)C3=C(C(=O)C(C)=C(N4CCCC4)C3=O)N1C[C@@H]1N[C@@H]12 | culture | - | 12.5 µg/mL | inhibition | Mycobacterium tuberculosis | BACTEC | H37Rv | - | 99%
C(=C\c1ccnc(/C=C/c2ccccc2)c1)/c1ccccc1 | culture | - | - | MIC | Mycobacterium tuberculosis | - | H37Rv | - | >100 µg/mL
OC1C2COc3nc4ccccc4n3C(O2)C1O | culture | - | 6.25 µg/mL | inhibition | Mycobacterium tuberculosis | - | H37Rv | - | 10%
CN(c1ccc(N(C)S(=O)(=O)c2cccc(N)c2)cc1)S(=O)(=O)c1cccc(N)c1 | culture | - | - | MIC | Mycobacterium tuberculosis | - | H37Rv | - | >100 µg/mL
CCOc1ccc2ccccc2c1C(=O)Nc1nnc(NCCCCc2ccccc2)s1 | target | Polymerase | - | IC50 | Human cytomegalovirus | - | - | - | >25 µM
CCN(CC)CC.NS(=O)(=O)c1ccc(NC(=S)S)cc1 | culture | - | 128 µg/mL | inhibition | Mycobacterium tuberculosis | BACTEC | H37Rv | - | 100%
O=S(=O)([O-])c1ccc(NS(=O)(=O)c2ccccc2)c2c(S(=O)(=O)[O-])cccc12 | culture | - | 5 µg/mL | inhibition | Adenovirus | cytopathic effect | TYPE 3 | Human embryonic lung cells | 0%
COc1cc(NCCCN2C(=O)c3ccccc3C2=O)c2ncccc2c1 | culture | - | - | MIC | Mycobacterium tuberculosis | - | H37Rv | - | >100 µg/mL
OCc1ccc(-c2cncc(N3CCN(c4ccccc4F)CC3)n2)cc1 | target | UL97 kinase | 1 µM | inhibition | Cytomegalovirus | - | - | - | <50%
O=S(=O)(O)c1ccc2ccc(S(=O)(=O)O)cc2c1 | culture | - | 50 µg/mL | inhibition | Herpes simplex virus | cytopathic effect | - | Human amnion AV3 cells | 10%
O=C(O)c1ccccc1C(=O)c1ccc(Cl)c2ccccc12 | culture | - | - | MIC | Mycobacterium tuberculosis | - | H37Rv | - | >100 µg/mL
N=C(N)N=Nc1ccc(O)cc1.ON(O)O | culture | - | 12.5 µg/mL | inhibition | Mycobacterium tuberculosis | BACTEC | H37Rv | - | 38%
Nc1cc2oc3ccccc3c2cc1N | culture | - | - | MIC | Mycobacterium tuberculosis | - | H37Rv | - | >100 µg/mL
O=C(/C=C/c1ccccc1)Nc1nnc(NCCc2ccccc2)s1 | target | Polymerase | - | IC50 | Human cytomegalovirus | - | - | - | >25 µM
CCOC(=O)C1(C(N)=O)CC1 | culture | - | - | MIC | Mycobacterium tuberculosis | - | H37Rv | - | >100 µg/mL
COc1ccc2cc(-c3cncc(N4CCN(c5ccc(C(C)=O)cc5)CC4)n3)ccc2c1 | target | UL97 kinase | - | IC50 | Cytomegalovirus | - | - | - | <10 µM
CC(C)c1cc(C(C)C)c(C(=O)Nc2nnc(NCc3ccc(F)cc3)s2)c(C(C)C)c1 | target | Polymerase | - | IC50 | Human cytomegalovirus | - | - | - | >25 µM
COc1cc(C(O)C2C(=O)OCC2C2(c3ccc4c(c3)OCO4)SCCCS2)cc(OC)c1OC | culture | - | 12.5 µg/mL | inhibition | Mycobacterium tuberculosis | BACTEC | H37Rv | - | -6%
Fc1ccc(N2CCCCC2)c(NC(=S)c2ccncc2)c1 | host protein | c-RAF | 10 µM | inhibition | - | kinase activity | - | - | 5%
CCCCCOc1ccc(C(=O)O)cc1[N+](=O)[O-] | culture | - | - | MIC | Mycobacterium tuberculosis | - | H37Rv | - | 100 µg/mL
CCOc1ccc2ccccc2c1C(=O)Nc1nnc(NC2CCN(Cc3ccccc3)CC2)s1 | target | Polymerase | - | IC50 | Human cytomegalovirus | - | - | - | <25 µM
Nc1cccc(S(=O)(=O)O)c1 | culture | - | 10 µg/mL | inhibition | Rhinovirus | cytopathic effect | - | Human embryonic lung cells | 0%
CSC(=S)N/N=C(/c1ccccc1)c1ccccn1 | culture | - | 128 µg/mL | inhibition | Mycobacterium tuberculosis | BACTEC | H37Rv | - | 100%
O=S(=O)([O-])c1cc(O)c2ccccc2c1 | culture | - | 5 µg/mL | inhibition | Adenovirus | cytopathic effect | TYPE 3 | Human embryonic lung cells | 0%
Cc1ccc2c(c1C)-c1c(ccc(C)c1C)C(=O)C2=O | culture | - | - | MIC bound | Mycobacterium tuberculosis | - | H37Rv | - | <6.25 µg/mL
FC(F)(F)c1ccc(-c2cncc(N3CCN(c4cccc(Cl)c4)CC3)n2)cc1 | target | UL97 kinase | - | IC50 | Cytomegalovirus | - | - | - | <100 µM
O=C(NNS(=O)(=O)c1ccccc1)c1ccc([N+](=O)[O-])cc1 | culture | - | 12.5 µg/mL | inhibition | Mycobacterium tuberculosis | BACTEC | H37Rv | - | -4%
O=C1NC(=O)c2cnccc21 | culture | - | - | MIC | Mycobacterium tuberculosis | - | H37Rv | - | >100 µg/mL
COc1ccccc1NC(=O)CC(=O)N1N=C(c2ccccc2)C(N=Nc2ccc(Cl)cc2)C1=O | culture | - | - | MIC bound | Mycobacterium tuberculosis | BACTEC | H37Rv | - | >12.5 µg/mL
Clc1cccc(-c2cncc(N3CCN(c4ccccn4)CC3)n2)c1 | target | UL97 kinase | 1 µM | inhibition | Cytomegalovirus | - | - | - | <50%
C=CCc1ccc(O)c(OC)c1 | culture | - | - | MIC90 | Candida albicans | turbidity | ATCC 10261 | - | 480 µg/mL
O=c1cc(CCl)[nH]nc1CCl | culture | - | 12.5 µg/mL | inhibition | Mycobacterium tuberculosis | BACTEC | H37Rv | - | 17%
COc1cc(C[C@H](C)[C@H](C)Cc2ccc(O)c(O)c2)ccc1O | culture | - | - | MIC80 | Candida lusitaniae | broth dilution | CCC 131-2000 | - | 62.5 µg/mL
CCC(CC)[C@H](NC(C)=O)[C@@H]1[C@H](O)[C@@H](C(=O)O)C[C@H]1N=C(N)N | culture | - | - | EC50 | Influenza A virus | visual reading | Influenza A/Washington/897/80 (H3N2) | MDCK | <0.01 µM
CCCCCCCC/C=C/CCCCCCCC(=O)Nc1nnc(NCCCCc2ccccc2)s1 | target | Polymerase | - | IC50 | Human cytomegalovirus | - | - | - | <25 µM
CCN(CCCl)c1cc(C(=O)Nc2cc(NC(=O)c3cc(N(CC)CCCl)c([N+](=O)[O-])cc3[N+](=O)[O-])cc(C(=O)NCCN(C)C)c2)c([N+](=O)[O-])cc1[N+](=O)[O-] | culture | - | 6.25 µg/mL | inhibition | Mycobacterium tuberculosis | resazurin | H37Rv | - | 10%
CN(C)CCOC(c1ccccc1)c1ccccc1 | culture | - | - | MIC | Mycobacterium tuberculosis | - | H37Rv | - | 100 µg/mL
C#CC[C@@H](C(=O)N[C@H](/C=C/C(=O)OCC)C[C@@H]1CCNC1=O)n1cccc(NC(=O)c2cc(C)on2)c1=O | culture | - | 0.12 µM | inhibition | Rhinovirus | cytopathic effect / XTT | Serotype 81 | H1-HELA | 90%
CC(=O)SCC(=O)Nc1cc(Cl)c(C)c(Cl)c1O | culture | - | - | MIC | Mycobacterium tuberculosis | - | H37Rv | - | >100 µg/mL
Cc1ccc(-c2cncc(N3CCN(c4ccncc4)CC3)n2)cc1 | target | UL97 kinase | - | IC50 | Cytomegalovirus | - | - | - | <10 µM
CCC1C[N+]2=C(c3cc(OC)c(OC)cc3CC2)c2c1cc1n2CCc2cc(OC)c(OC)cc2-1 | culture | - | - | MIC bound | Mycobacterium tuberculosis | BACTEC | H37Rv | - | ≤128 µg/mL
COc1ccccc1N1CCN(c2cncc(-c3ccoc3)n2)CC1 | target | UL97 kinase | - | IC50 | Cytomegalovirus | - | - | - | <10 µM
O=C(Nc1nnc(NCCCN2CCCC2=O)s1)c1ccc(F)cc1F | target | Polymerase | - | IC50 | Human cytomegalovirus | - | - | - | >25 µM
O=C(O)c1cc(Br)ccc1O | culture | - | - | MIC | Mycobacterium tuberculosis | - | H37Rv | - | 50 µg/mL
CCOC(=O)n1[nH][nH]c2c(c(=O)n(C)c(=O)n2C)n1C(=O)OCC | culture | - | - | MIC bound | Mycobacterium tuberculosis | BACTEC | H37Rv | - | ≤128 µg/mL
c1ccc2sc(-c3cncc(N4CCN(c5ccncc5)CC4)n3)cc2c1 | target | UL97 kinase | - | IC50 | Cytomegalovirus | - | - | - | <1 µM
CCCCCC1=NCCN1 | culture | - | - | MIC | Mycobacterium tuberculosis | - | H37Rv | - | >100 µg/mL
Cc1nc(NCCNCCO)nc2c1C(=O)Nc1ccccc1N2 | culture | - | - | MIC bound | Mycobacterium tuberculosis | resazurin | H37Rv | - | >6.25 µg/mL
CC(O)CO | culture | - | - | MIC | Mycobacterium tuberculosis | - | H37Rv | - | >100 µg/mL
O=S(=O)([O-])c1ccc2c(S(=O)(=O)[O-])cc(S(=O)(=O)[O-])cc2c1 | culture | - | 5 µg/mL | inhibition | Rhinovirus | cytopathic effect | - | Human embryonic lung cells | 10%
CCCCCCCCCCCCCCCCS | culture | - | - | MIC | Mycobacterium tuberculosis | - | H37Rv | - | >100 µg/mL
COC(=O)C1CSC(c2c(COP(=O)([O-])[O-])cnc(C)c2[O-])N1.[Na+].[Na+].[Na+] | culture | - | 12.5 µg/mL | inhibition | Mycobacterium tuberculosis | BACTEC | H37Rv | - | 0%
FC(F)(F)c1ccc(-c2cncc(N3CCN(c4ccccc4)CC3)n2)cc1 | target | UL97 kinase | 1 µM | inhibition | Cytomegalovirus | - | - | - | <50%
CC1=C(C(=O)O)N2C(=O)C(NC(=O)C(c3ccccc3)N3CSC(=S)N(C(C)C)C3)C2SC1 | culture | - | - | MIC bound | Mycobacterium tuberculosis | BACTEC | H37Rv | - | >12.5 µg/mL
O=C(O)/C=C\C(=O)Nc1ccc([N+](=O)[O-])cc1 | culture | - | - | MIC | Mycobacterium tuberculosis | - | H37Rv | - | >100 µg/mL
COc1ccc(NC(=O)CC/C(CC(=O)C(C)(C)C)=N\NC(=O)C(=O)NN)cc1 | culture | - | 12.5 µg/mL | inhibition | Mycobacterium tuberculosis | BACTEC | H37Rv | - | 7%
CC(=O)c1ccc2oc3cc4nc(C)[nH]c4cc3c2c1 | culture | - | - | MIC | Mycobacterium tuberculosis | - | H37Rv | - | 50 µg/mL
COc1cc(C(=O)NN=C2c3ccccc3-c3ccccc32)cc(OC)c1OC | culture | - | - | MIC bound | Mycobacterium tuberculosis | BACTEC | H37Rv | - | >12.5 µg/mL
Nc1ccc2cc(S(=O)(=O)O)cc(S(=O)(=O)O)c2c1 | culture | - | 10 µg/mL | inhibition | Herpes simplex virus | cytopathic effect | - | Human conjunctiva cells | 0%
CCC[CH2][Sn]1([CH2]CCC)[O]C(=O)CN=C(C)c2ccccc2[O]1 | culture | - | - | MIC | Mycobacterium tuberculosis | - | PZA-R | - | 6.3 µg/mL
O=C(O)c1ccc2cccnc2c1O | culture | - | - | MIC | Mycobacterium tuberculosis | - | H37Rv | - | 100 µg/mL

Repeating the final 8 entries:

compound | kind | target | tested at | measure | species | read by | strain | cell line | value
CC1=C(C(=O)O)N2C(=O)C(NC(=O)C(c3ccccc3)N3CSC(=S)N(C(C)C)C3)C2SC1 | culture | - | - | MIC bound | Mycobacterium tuberculosis | BACTEC | H37Rv | - | >12.5 µg/mL
O=C(O)/C=C\C(=O)Nc1ccc([N+](=O)[O-])cc1 | culture | - | - | MIC | Mycobacterium tuberculosis | - | H37Rv | - | >100 µg/mL
COc1ccc(NC(=O)CC/C(CC(=O)C(C)(C)C)=N\NC(=O)C(=O)NN)cc1 | culture | - | 12.5 µg/mL | inhibition | Mycobacterium tuberculosis | BACTEC | H37Rv | - | 7%
CC(=O)c1ccc2oc3cc4nc(C)[nH]c4cc3c2c1 | culture | - | - | MIC | Mycobacterium tuberculosis | - | H37Rv | - | 50 µg/mL
COc1cc(C(=O)NN=C2c3ccccc3-c3ccccc32)cc(OC)c1OC | culture | - | - | MIC bound | Mycobacterium tuberculosis | BACTEC | H37Rv | - | >12.5 µg/mL
Nc1ccc2cc(S(=O)(=O)O)cc(S(=O)(=O)O)c2c1 | culture | - | 10 µg/mL | inhibition | Herpes simplex virus | cytopathic effect | - | Human conjunctiva cells | 0%
CCC[CH2][Sn]1([CH2]CCC)[O]C(=O)CN=C(C)c2ccccc2[O]1 | culture | - | - | MIC | Mycobacterium tuberculosis | - | PZA-R | - | 6.3 µg/mL
O=C(O)c1ccc2cccnc2c1O | culture | - | - | MIC | Mycobacterium tuberculosis | - | H37Rv | - | 100 µg/mL